Results reported in PubChem BioAssay AID720641 (ICCB-Longwood Screening Facility, Harvard Medical School, 2013).
Only a part is listed here, and it is no random draw. Calls of active or inactive are those of the source.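 The calls were made as follows: active = relative growth at most 50% at the other temperature and 20+ points below 30 °C, or under 10% at both; inactive = the rest, inconclusive results apart.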

Test: Staphylococcus aureus RN4220 growth blockers – two temperatures, LtaS inhibitor project, primary screen (AID 720641)
Conditions: S. aureus RN4220 growth, OD600, 20 h, 42 °C; stronger effect = lower value

Compound	relative growth
COc1ccccc1OP(C)(=O)Nc1ccccc1 (stereo not drawn)	inactive: 97.9%
CCN1C(=O)N(c2ccccc2)P(=S)(OC)c2cc3c(cc21)OCCO3 (stereo not drawn)	inactive: 85.9%
CP(=O)(Nc1ccc(Cl)cc1)Oc1ccccc1 (stereo not drawn)	inactive: 97.1%
O=C(O)CCC(=O)N=S(c1ccccc1)c1ccccc1.O=[N+]([O-])c1cc([N+](=O)[O-])c(O)c([N+](=O)[O-])c1	inactive: 106%
CCn1cccc/c1=N\P1(=S)OCCO1	inactive: 89%
Cc1cccc(NP(C)(=O)Oc2ccccc2)c1 (stereo not drawn)	inactive: 106%
CCOC(=O)c1ccc(NP(C)(=O)Oc2ccc(OC)cc2)cc1 (stereo not drawn)	inactive: 107%
CP(=O)(NC(=O)Nc1ccccc1)Oc1ccccc1 (stereo not drawn)	inactive: 108%
COP1(=S)c2c(C)nn(-c3ccccc3)c2N=C(c2ccccc2)N1C1CC1 (stereo not drawn)	inactive: 89%
O=P1(Nc2nccs2)CC=CC1	inactive: 96.2%
O=C(OC1CN2CCC1CC2)C12CC3CC(CC(C3)C1)C2 (stereo not drawn)	inactive: 87.9%
COP1(=S)N=C2c3ccccc3CN2c2cc(N(C)C)ccc21 (stereo not drawn)	inactive: 95%
Cc1cc(C)cc(OP(C)(=O)NCc2ccccc2)c1 (stereo not drawn)	inactive: 127%
Nc1nonc1OCCOc1nonc1N	inactive: 125%
CC1=Nc2ccc(C(F)(F)F)cc2C1(C)C	inactive: 78.2%
O=C(O)C1(O)c2ccccc2-c2ccccc21	inactive: 99.2%
CCOP1(=S)c2c(C)nn(CCC#N)c2N=C(c2ccc(F)cc2)N1C (stereo not drawn)	inactive: 113%
O=P1(Nc2nc3ccc(Cl)cc3s2)COc2ccccc2OC1	inactive: 87.5%
NC(=O)COC(=O)C1(O)c2ccccc2-c2ccccc21	inactive: 79.9%
Cc1cccc(OCC(=O)OC2CN3CCC2CC3)c1 (stereo not drawn)	inactive: 112%
COc1cc(-n2cnnn2)ccc1-n1cnnn1	inactive: 95.2%
O=C(OC1CN2CCC1CC2)c1ccc(Cl)cc1 (stereo not drawn)	inactive: 108%
Nc1nonc1-c1no[n+]([O-])c1-c1nonc1N	inactive: 108%
O=P1(Nc2ccccn2)COc2ccccc2OC1	inactive: 111%
CC1(C)COP(=S)(N(C2=NCCC2)c2ccccc2)OC1	inactive: 85.1%
Cc1cc(C)cc(OP(C)(=O)Nc2ccc(OC(C)C)cc2)c1 (stereo not drawn)	inactive: 100%
CCSP(=O)(c1ccccc1)c1ccccc1	inactive: 99.1%

Compound	relative growth
Cc1nn(CCC#N)c2c1P(=O)(Nc1ccccc1Cl)N(C)C(c1ccc(F)cc1)=N2 (stereo not drawn)	inactive: 96%
CP(=O)(N1CCOCC1)N1CCOCC1	inactive: 106%
Cc1nn(-c2ccccc2)c2c1P(=O)(N1CCOCC1)N(C)C(c1ccccc1)=N2 (stereo not drawn)	inactive: 100%
Cc1ccc(C(=O)OC2CN3CCC2CC3)cc1 (stereo not drawn)	inactive: 96.8%
Nc1nonc1OCc1nonc1COc1nonc1N	inactive: 87.8%
CC(=O)OC1(C#N)CN2CCC1CC2 (stereo not drawn)	active: -1.28%
C=CCN1CCN(CCOC(=O)C(O)(c2ccccc2)c2ccccc2)CC1	inactive: 82.6%
Cc1ccccc1NP(C)(=O)Nc1ccccc1C	inactive: 88.1%
CC(=O)OC1CN2CCC1C(c1ccccc1)C2 (stereo not drawn)	inactive: 111%
O=P(Nc1nccs1)(c1ccccc1)c1ccccc1	inactive: 86.2%
O=C(OCCN1CCN(CCOCc2ccccc2)CC1)C(O)(c1ccccc1)c1ccccc1	inactive: 147%
Cc1cc(NC2=NC3C(C(=O)N(C)C(=O)N3C)N2C)n(-c2ccccc2)n1 (stereo not drawn)	inactive: 84.3%
O=P1(Nc2nncs2)C=C(c2ccccc2)SC(c2ccccc2)=C1	inactive: 101%
O=P1(Nc2nc3ccc(Cl)cc3s2)COc2ccccc2O1 (stereo not drawn)	inactive: 120%
CC1CCC(C(C)C)C(OP(=O)(Nc2nccs2)c2ccccc2)C1 (stereo not drawn)	inactive: 125%
O=C(OC1CN2CCC1CC2)c1ccccc1 (stereo not drawn)	inactive: 91.7%
COc1cc2c(cc1NP(C)(=O)Oc1ccccc1)oc1ccccc12 (stereo not drawn)	inactive: 48.2%
COC(=O)c1cc2c(s1)N=C(c1ccccc1)N(C)P2(=O)N1CCOCC1 (stereo not drawn)	inactive: 99.9%
O=C(OCC1CN(Cc2ccccc2)CCO1)C(O)(c1ccccc1)c1ccccc1 (stereo not drawn)	inactive: 119%
O=C(COC(=O)C(O)(c1ccccc1)c1ccccc1)N1CCCCC1	inactive: 102%
CCOP(=Nc1nc2ccccc2n2nnnc12)(OCC)OCC	inactive: 102%
CP(=O)(Nc1ccccn1)Oc1ccccc1 (stereo not drawn)	inactive: 96.2%
CCOP(OCC)N1CCOCC1	inactive: 106%
CP(=O)(Nc1ccc(Cl)cc1)Oc1ccc(F)cc1 (stereo not drawn)	inactive: 96%
CCc1ccc(OP(C)(=O)Nc2cccnc2)cc1 (stereo not drawn)	inactive: 89.8%
CCc1nc2c(n1)c1c(non1O)c1c2no[n+]1[O-]	inactive: 88.7%
